Test [1] addresses purified soluble αvβ5 integrin (Millipore), not stated, P06756 31-992; P18084 24-719.
Test [2] addresses soluble recombinant α5β1 integrin (R&D Systems), not stated, P08648 42-995; P05556 21-728.
Test [3] addresses purified soluble αvβ3 integrin (Millipore), not stated, P06756 31-992; P05106 27-718.

Results on one substance are retold here after patent publication US20110300579.

Take “Vicrostatin (VCN), recombinant chimeric disintegrin”: the values for the Kd in test [1], in test [2] and in test [3] were 41.2 nM, 15.2 nM and 7.4 nM, respectively.
